The experiment concerns human red blood cells. To be noted: red cells of human.

Like-named read-outs stand apart in the source and are kept apart here.

In the case of `CC[C@H](C)[C@H](NC(=O)[C@H](C)NC(=O)[C@H](CCC(=O)O)NC(=O)[C@H](Cc1ccccc1)NC(=O)[C@H](CC(C)C)NC(=O)CNC(=O)[C@@H](N)CS)C(=O)N[C@@H](CCC(=O)O)C(=O)NCC(=O)N[C@@H](Cc1ccccc1)C(=O)N[C@H](C(=O)N[C@@H](CCC(=O)O)C(=O)N[C@@H](CC(N)=O)C(=O)N[C@@H](CCCCN)C(=O)N[C@@H](Cc1c[nH]c2ccccc12)C(=O)N[C@@H](CCC(=O)O)C(=O)NCC(=O)N[C@@H](CCSC)C(=O)N[C@H](C(=O)N[C@@H](CC(=O)O)C(=O)NCC(=O)N[C@@H](Cc1c[nH]c2ccccc12)C(=O)N[C@@H](Cc1ccc(O)cc1)C(=O)NCC(=O)N[C@@H](Cc1ccc(O)cc1)C(=O)NCC(=O)N[C@@H](CCCNC(=N)N)C(=O)N[C@@H](CCCCN)C(=O)N[C@@H](CCCCN)C(=O)N[C@@H](CCCNC(=N)N)C(=O)N[C@@H](CCCNC(=N)N)C(=O)N[C@@H](CCC(N)=O)C(=O)N[C@@H](CCCNC(=N)N)C(=O)N[C@@H](CCCNC(=N)N)C(N)=O)[C@@H](C)CC)[C@@H](C)CC` [Peptide 24b], the IC50 is more than 10 µM (pH 5.5) and more than 10 µM (pH 7.4).

Broadly, the IC50 is the point on the concentration scale where inhibition reaches its midpoint.

Source of the values: PMC6600388 (2019).
